From US20240109955A1 (published 2024)

Experiments:
Test in all cases: cell-based or functional assay
[1] = molecular target: SARS-CoV-2 spike protein, Omicron variant XBB (SARS-CoV-2)
[2] = molecular target: SARS-CoV-2 spike protein, Omicron variant BQ.1 (SARS-CoV-2)
[3] = molecular target: SARS-CoV-2 spike protein, Omicron variant BA.4/5 (SARS-CoV-2)
[4] = molecular target: SARS-CoV-2 spike protein, Omicron variant BQ.1.1 (SARS-CoV-2)
[5] = molecular target: SARS-CoV-2 spike protein, Omicron variant BA.2.75.2 (SARS-CoV-2)
[6] = molecular target: SARS-CoV-2 spike protein, Delta variant (SARS-CoV-2)
[7] = molecular target: SARS-CoV-2 spike protein, Omicron variant (B.1.1.529) (SARS-CoV-2, UniProt P0DTC2 14-1273)
[8] = molecular target: SARS-CoV-2 spike protein, Omicron sublineage BA.1.1 (R346K) (SARS-CoV-2, UniProt P0DTC2 14-1273)

Binder | IC50, pseudovirus neutralization [1] | IC80, pseudovirus neutralization [1] | IC50, pseudovirus neutralization [2] | IC80, pseudovirus neutralization [2] | IC50, pseudovirus neutralization [3] | IC80, pseudovirus neutralization [3] | IC50, pseudovirus neutralization [4] | IC80, pseudovirus neutralization [4] | IC50, pseudovirus neutralization [5] | IC80, pseudovirus neutralization [5] | IC50, pseudovirus neutralization [6] | IC80, pseudovirus neutralization [6] | IC50, pseudovirus neutralization [7] | IC80, pseudovirus neutralization [7] | IC50, pseudovirus neutralization [8] | IC80, pseudovirus neutralization [8]
MX1072 (other) chain 1: EIVLTQSPGTLSLSPGETATLSCRASQSFSSDLAWYQQKPGQAPRLLIYGASSRATGIPDRFSGSGSGTDFTLTISRLEPADFAVYYCQQYGSSPPVTFGGGTKVEIKGGSSGQTVVTQEPSFSVSPGGTVTLTCGLSSGSVSTAYFPSWYQQTPGQAPRTLIYGTNTRSSGVPDRFSGSILGNKAALTITGAQADDESDYYCVLYMGRGIVVFGGGTKLTVLGGGGSGGSGSGGGGSASGSGQVQLVESGGGVVQPGRSLRLSCAASGFTLSSYGMHWVRQAPGKGLEWVAVISYDGSNKYYVDSVKGRFTISRDNSKNTLYLQMNSLRAEDTAVYYCRWAYWELLPDYYYGMDVWGQGTTVTVSSGGSSGEVQLVESGGGLIQPGGSLRLSCAASGVIVSYNYMNWVRQAPGKGLEWVSVIYSGGSTFYADSVRGRFTISRDNSKNTLYLQMNSLRAEDTAVYYCARDLGPAGAFDIWGLGTMVTVSSASGGSGDKTHTCPPCPAPELLGGPSVFLFPPKPKDTLMISRTPEVTCVVVDVSHEDPEVKFNWYVDGVEVHNAKTKPREEQYNSYVVSVLTVLHQDWLNGKEYKCKVSNKALPAPIEKTISKAKGQPREPQVYTLPPCRDELTKNQVSLWCLVKGFYPSDIAVEWESNGQPENNYKTTPPVLDSDGSFFKKLTVDKSRWQQGNVFSCSVLHEALHSHYTQKSLSLSPG chain 2: DTVMTQSPLSLPVTPGEPASISCRSSQSLLNSNGYNYLDWYVQKPGQSPQLLIYLGSNRASGVPDRFSGSGSGTDFTLKISRVEAEDVGVYYCMQPLQTPLFTFGPGTKVEIKGGSSGEIVLTQSPGTLSLSPGETATLSCRASQSFSSDLAWYQQKPGQAPRLLIYGASSRATGIPDRFSGSGSGTDFTLTISRLEPADFAVYYCQQYGSSPPVTFGGGTKVEIKGGGGSGGSGSGGGGSASGSGEVQLVESGGGLIQPGGSLRLSCAASGVIVSYNYMNWVRQAPGKGLEWVSVIYSGGSTFYADSVRGRFTISRDNSKNTLYLQMNSLRAEDTAVYYCARDLGPAGAFDIWGLGTMVTVSSGGSSGQVTLRESGPALVKPTQTLTLTCTFSGFSLSTRGVCVSWIRQPPGKALEWLAFIDWDDDKYYNTSLKTRLTISKDTSKNQVVLTMTNVHPVDTATYYCARISSHHGSSWCTTFDYWGQGALVTVSAASGGSGDKTHTCPPCPAPELLGGPSVFLFPPKPKDTLMISRTPEVTCVVVDVSHEDPEVKFNWYVDGVEVHNAKTKPREEQYNSYVVSVLTVLHQDWLNGKEYKCKVSNKALPAPIEKTISKAKGQPREPQVCTLPPSRDELTKNQVSLSCAVKGFYPSDIAVEWESNGQPENNYKTTPPVLDSDGSFFLVSKLTVDKSRWQQGNVFSCSVLHEALHSHYTQKSLSLSPG | 0.00848 mg/L | 0.0221 mg/L | 0.00632 mg/L | 0.0167 mg/L | 0.00446 mg/L | 0.0178 mg/L | 0.0154 mg/L | 0.0259 mg/L | 0.0161 mg/L | 0.0338 mg/L | 0.0248 mg/L | 0.107 mg/L | – | – | – | –
MX829 (bispecific antibody) DIQMTQSPSSVSASVGDRVIITCRASQGISSWLAWYQQKPGKAPKVLIYDASSLQSGVPSRFSGSGYGTDFTLTISSLQPEDSATYYCQQAKSFPITFGQGTRLEIKGGSSGEIVLTQSPGTLSLSPGERATLSCRASQSVSSSYLAWYQQKPGQAPRLLIYSASSRATGIPDRFSGSGSGTDFTLTISRLEPEDFAVYFCQQYVGLTGWTFGQGTKVEIKGGGGSGGSGSGGGGSASGSGQMQLVQSGPEVKKPGTSVKVSCKASGFTFTSSAVQWVRQRQRLEWIGWIVVGSGNTNYAQKFQERVTITRDMSTSTAYMELSSLRSEDTAVYYCAAPNCSNVVCYDGFDIWGQGTMVTVSSGGSSGQVQLVESGGGVVQPGRSLRLSCAASGFTFSSYAFHWVRQAPGKGLEWVAVISYDGSNQYYADSVKGRFTISRDNSKNTLYLQMNSLRADDTAVYYCARDLAIAVAGTWHYYNGMDVWGQGTTVTVSSASGGSGDKTHTCPPCPAPELLGGPSVFLFPPKPKDTLMISRTPEVTCVVVDVSHEDPEVKFNWYVDGVEVHNAKTKPREEQYNSYVVSVLTVLHQDWLNGKEYKCKVSNKALPAPIEKTISKAKGQPREPQVYTLPPSRDELTKNQVSLTCLVKGFYPSDIAVEWESNGQPENNYKTTPPVLDSDGSFFKKLTVDKSRWQQGNVFSCSVLHEALHSHYTQKSLSLSPG | – | – | – | – | – | – | – | – | – | – | – | – | 0.0348 µM | 0.0701 µM | 0.00672 µM | 0.0354 µM
MX1078 (other) chain 1: DTVMTQSPLSLPVTPGEPASISCRSSQSLLNSNGYNYLDWYVQKPGQSPQLLIYLGSNRASGVPDRFSGSGSGTDFTLKISRVEAEDVGVYYCMQPLQTPLFTFGPGTKVEIKGGSSGEIVLTQSPGTLSLSPGETATLSCRASQSFSSDLAWYQQKPGQAPRLLIYGASSRATGIPDRFSGSGSGTDFTLTISRLEPADFAVYYCQQYGSSPPVTFGGGTKVEIKGGGGSGGSGSGGGGSASGSGEVQLVESGGGLIQPGGSLRLSCAASGVIVSYNYMNWVRQAPGKGLEWVSVIYSGGSTFYADSVRGRFTISRDNSKNTLYLQMNSLRAEDTAVYYCARDLGPAGAFDIWGLGTMVTVSSGGSSGQVTLRESGPALVKPTQTLTLTCTFSGFSLSTRGVCVSWIRQPPGKALEWLAFIDWDDDKYYNTSLKTRLTISKDTSKNQVVLTMTNVHPVDTATYYCARISSHHGSSWCTTFDYWGQGALVTVSAASGGSGDKTHTCPPCPAPELLGGPSVFLFPPKPKDTLMISRTPEVTCVVVDVSHEDPEVKFNWYVDGVEVHNAKTKPREEQYNSYVVSVLTVLHQDWLNGKEYKCKVSNKALPAPIEKTISKAKGQPREPQVYTLPPCRDELTKNQVSLWCLVKGFYPSDIAVEWESNGQPENNYKTTPPVLDSDGSFFKKLTVDKSRWQQGNVFSCSVLHEALHSHYTQKSLSLSPG chain 2: DTVMTQSPLSLPVTPGEPASISCRSSQSLLNSNGYNYLDWYVQKPGQSPQLLIYLGSNRASGVPDRFSGSGSGTDFTLKISRVEAEDVGVYYCMQPLQTPLFTFGPGTKVEIKGGSSGQTVVTQEPSFSVSPGGTVTLTCGLSSGSVSTAYFPSWYQQTPGQAPRTLIYGTNTRSSGVPDRFSGSILGNKAALTITGAQADDESDYYCVLYMGRGIVVFGGGTKLTVLGGGGSGGSGSGGGGSASGSGQVQLVESGGGVVQPGRSLRLSCAASGFTLSSYGMHWVRQAPGKGLEWVAVISYDGSNKYYVDSVKGRFTISRDNSKNTLYLQMNSLRAEDTAVYYCRWAYWELLPDYYYGMDVWGQGTTVTVSSGGSSGQVTLRESGPALVKPTQTLTLTCTFSGFSLSTRGVCVSWIRQPPGKALEWLAFIDWDDDKYYNTSLKTRLTISKDTSKNQVVLTMTNVHPVDTATYYCARISSHHGSSWCTTFDYWGQGALVTVSAASGGSGDKTHTCPPCPAPELLGGPSVFLFPPKPKDTLMISRTPEVTCVVVDVSHEDPEVKFNWYVDGVEVHNAKTKPREEQYNSYVVSVLTVLHQDWLNGKEYKCKVSNKALPAPIEKTISKAKGQPREPQVCTLPPSRDELTKNQVSLSCAVKGFYPSDIAVEWESNGQPENNYKTTPPVLDSDGSFFLVSKLTVDKSRWQQGNVFSCSVLHEALHSHYTQKSLSLSPG | 0.0454 mg/L | 0.0973 mg/L | 0.0334 mg/L | 0.21 mg/L | 0.00372 mg/L | 0.0179 mg/L | 0.0484 mg/L | 0.0918 mg/L | 0.00591 mg/L | 0.0222 mg/L | 0.0119 mg/L | 0.0259 mg/L | – | – | – | –
MX828 (bispecific antibody) QTVVTQEPSFSVSPGGTVTLTCGLSSGSVSTAYFPSWYQQTPGQAPRTLIYGTNTRSSGVPDRFSGSILGNKAALTITGAQADDESDYYCVLYMGRGIVVFGGGTKLTVLGGSSGEIVLTQSPGTLSLSPGERATLSCRASQSVSSSYLAWYQQKPGQAPRLLIYSASSRATGIPDRFSGSGSGTDFTLTISRLEPEDFAVYFCQQYVGLTGWTFGQGTKVEIKGGGGSGGSGSGGGGSASGSGQMQLVQSGPEVKKPGTSVKVSCKASGFTFTSSAVQWVRQRQRLEWIGWIVVGSGNTNYAQKFQERVTITRDMSTSTAYMELSSLRSEDTAVYYCAAPNCSNVVCYDGFDIWGQGTMVTVSSGGSSGQVQLVESGGGVVQPGRSLRLSCAASGFTLSSYGMHWVRQAPGKGLEWVAVISYDGSNKYYVDSVKGRFTISRDNSKNTLYLQMNSLRAEDTAVYYCRWAYWELLPDYYYGMDVWGQGTTVTVSSASGGSGDKTHTCPPCPAPELLGGPSVFLFPPKPKDTLMISRTPEVTCVVVDVSHEDPEVKFNWYVDGVEVHNAKTKPREEQYNSYVVSVLTVLHQDWLNGKEYKCKVSNKALPAPIEKTISKAKGQPREPQVYTLPPSRDELTKNQVSLTCLVKGFYPSDIAVEWESNGQPENNYKTTPPVLDSDGSFFKKLTVDKSRWQQGNVFSCSVLHEALHSHYTQKSLSLSPG | – | – | – | – | – | – | – | – | – | – | – | – | 0.0043 µM | 0.0195 µM | 0.00175 µM | 0.00623 µM
